## Share of PSTVd stem 3 variants by leaf site

Region: stem 3 of PSTVd (intermediate strain), upper and lower strand joined, each 5' to 3', the first 8 letters being the upper strand. Wild type: GUGGUUCCGGAACCGC. Varied positions (N): GUGGUUCCGNANNCNN.

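Three N. benthamiana plants were inoculated with the whole mutant pool. Progeny were sequenced from the inoculated region (day 5), the margin of the inoculated leaf (day 10) and systemic leaves (day 12).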

Numbers give reads per thousand; 0 = not seen among the reads, higher = more abundant.
Each site shows the three plants.
"Pool" is the share in the plasmid pool used as inoculum, on the same scale.
The inoculated region was read from the minus strand, the other sites from the plus strand.
IR is the inoculated region, LM the leaf margin, Sys the systemic leaves.
The authors trace changes outside the varied positions to PCR and sequencing errors or to mutation in the plant; presence does not show that a variant is infectious alone.

sequence,pool,IR,LM,Sys
AUGGUUCCGAAAUCCA,0.0154,0 0 0,0 0 0,0 0 0
AUGGUUCCGAAGCCUG,0.0154,0 0 0,0 0 0,0 0 0
AUGGUUCCGAAGUCCU,0.0154,0 0 0,0 0.0318 0,0 0 0
AUGGUUCCGCAAGCGA,0.0154,0 0 0,0 0 0,0 0 0
AUGGUUCCGGAAUCGU,0.0308,0 0 0,0 0 0,0 0 0
AUGGUUCCGGACCCCC,0.0154,0 0 0,0 0 0,0 0 0
AUGGUUCCGGACUCUC,0.0154,0 0 0,0 0 0,0 0 0
AUGGUUCCGUAAACCA,0.0154,0 0 0,0 0 0,0 0 0
GAGGUUCCGCAAUCAU,0.0154,0 0 0,0 0 0,0 0 0
GAGGUUCCGUAUGCUG,0.0154,0 0 0,0 0 0,0 0 0
GGGGGUCCGAAACCCC,0.0154,0 0 0,0 0 0,0 0 0
GGGGGUCCGCAGACGU,0.0154,0 0 0,0 0 0,0 0 0
GGGGUUCCGCAGACGC,0.0154,0 0 0,0 0 0,0 0 0
GGGGUUCCGGAGACGU,0.0154,0 0 0,0 0 0,0 0 0
GGGGUUCCGGAUCCGC,0.0154,0 0 0,0 0 0,0.0186 0 0
GGGGUUCCGGAUUCUC,0.0154,0 0 0,0 0 0,0 0 0
GGGGUUCCGUAAACGA,0.0154,0 0 0,0 0 0,0 0 0
GUAGUUCCGGAGACUC,0.0154,0 0 0,0 0 0,0 0 0
GUCGUUCCGAACGCCC,0.0154,0 0 0,0 0 0,0 0 0
GUCGUUCCGUAACCGU,0.0154,0 0 0,0 0 0,0 0 0
GUGAUUCCGAAACCUA,0.0154,0 0 0,0 0 0,0 0 0
GUGAUUCCGUACACGG,0.0154,0 0 0,0 0 0,0 0 0
GUGGCUCCGAACCCUG,0.0154,0 0 0,0 0 0,0 0 0
GUGGCUCCGAACGCAA,0.0154,0 0 0,0 0 0,0 0 0
GUGGCUCCGGAGACAA,0.0154,0 0 0,0 0 0,0 0 0
GUGGCUCCGUAUGCGA,0.0154,0 0 0,0 0 0,0 0 0
GUGGGUCCGAAAACGA,0.0154,0 0 0,0 0 0,0 0 0
GUGGGUCCGAAACCUA,0.0154,0 0 0,0 0 0,0 0 0
GUGGGUCCGAAAGCGG,0.0154,0 0 0,0 0 0,0 0 0
GUGGGUCCGAAAUCAC,0.0154,0 0 0,0 0 0,0 0 0
GUGGGUCCGAACACCG,0.0308,0 0 0,0 0 0,0 0 0
GUGGGUCCGAACUCUC,0.0462,0 0 0,0 0 0,0 0 0
GUGGGUCCGAAGCCAC,0.0154,0 0 0,0 0 0,0 0 0.0243
GUGGGUCCGAAGCCGC,0.0154,0 0 0,0 0 0,0 0 0
GUGGGUCCGAAUCCCA,0.0154,0 0 0,0 0 0,0 0 0
GUGGGUCCGAAUCCGC,0.0154,0 0 0,0 0 0,0 0 0
GUGGGUCCGAAUCCGG,0.0154,0 0 0,0 0 0,0 0 0
GUGGGUCCGAAUGCAC,0.0154,0.0267 0 0,0 0 0,0 0 0
GUGGGUCCGAAUGGUA,0.0154,0 0 0,0 0 0,0 0 0
GUGGGUCCGCAACCAC,0.0154,0 0 0,0 0 0,0 0 0
GUGGGUCCGCAAGCCC,0.0154,0 0 0,0 0 0,0 0 0
GUGGGUCCGCAGCCGU,0.0154,0 0 0,0 0 0,0 0 0
GUGGGUCCGCAUACUU,0.0154,0 0 0,0 0 0,0 0 0
GUGGGUCCGCAUCCAU,0.0154,0 0 0,0 0 0,0 0 0
GUGGGUCCGCAUCCCG,0.0154,0 0 0,0 0 0,0 0 0
GUGGGUCCGCAUGCCC,0.0154,0 0 0,0 0 0,0 0 0
GUGGGUCCGCAUGCGC,0.0154,0 0 0,0 0 0,0 0 0
GUGGGUCCGGAACCGG,0.0154,0 0 0,0 0 0,0 0 0.0243
GUGGGUCCGGAACCUU,0.0154,0 0 0,0 0 0,0 0 0
GUGGGUCCGGAAGCCG,0.0154,0 0 0,0 0 0,0 0 0
GUGGGUCCGGAAGCGA,0.0154,0 0 0,0 0 0,0 0 0
GUGGGUCCGGACCCCG,0.0154,0 0 0,0 0 0,0 0 0
GUGGGUCCGGACUCUC,0.0154,0 0 0,0 0 0.0361,0 0 0
GUGGGUCCGGAGACGG,0.0154,0 0 0,0 0 0,0 0 0
GUGGGUCCGGAUACUG,0.0154,0 0 0,0 0 0,0 0 0
GUGGGUCCGGAUCCAA,0.0154,0 0 0,0 0 0,0 0 0
GUGGGUCCGGAUCCGA,0.0154,0 0 0,0 0 0,0 0 0
GUGGGUCCGGAUCCGG,0.0154,0 0 0,0 0 0,0 0 0
GUGGGUCCGGAUGCGG,0.0154,0 0 0,0 0 0,0 0 0
GUGGGUCCGGAUUCGU,0.0308,0 0 0,0 0 0,0 0 0
GUGGGUCCGUAAGCUU,0.0154,0 0 0,0 0 0,0 0 0
GUGGGUCCGUACGCCA,0.0154,0 0 0,0 0 0,0 0 0
GUGGGUCCGUACGCCC,0.0154,0 0 0,0 0 0,0 0 0
GUGGGUCCGUAGCCUA,0.0154,0 0 0,0 0 0,0 0 0
GUGGGUCCGUAGGCGU,0.0154,0 0 0.0270,0 0 0,0 0 0
GUGGGUCCGUAGUCGU,0.0154,0 0 0.0270,0 0 0,0 0 0.0243

The first 6 entries again:

sequence,pool,IR,LM,Sys
AUGGUUCCGAAAUCCA,0.0154,0 0 0,0 0 0,0 0 0
AUGGUUCCGAAGCCUG,0.0154,0 0 0,0 0 0,0 0 0
AUGGUUCCGAAGUCCU,0.0154,0 0 0,0 0.0318 0,0 0 0
AUGGUUCCGCAAGCGA,0.0154,0 0 0,0 0 0,0 0 0
AUGGUUCCGGAAUCGU,0.0308,0 0 0,0 0 0,0 0 0
AUGGUUCCGGACCCCC,0.0154,0 0 0,0 0 0,0 0 0

With 27,691-54,225 reads a sample, very low values are single reads.
For reference, wild type rose from 17.3 per thousand in the pool to 330, 345, 235 (inoculated region), 794, 766, 816 (leaf margin) and 830, 792, 869 (systemic leaves).

Source: Wu et al. 2024 (doi:10.1371/journal.ppat.1012142), supplementary data.